A mixed list of measured activities; the numbers were collected in NIAID ChemDB.

All rows: tests in culture; species: Mycobacterium tuberculosis

Percent inhibition refers to the dose given; in toxicity tests it is the harm to the cells.

compound	strain	read by	conditions	endpoint	dose	value
CCCCOc1ccccc1NC(=O)OCC[NH+]1CCCC1	My 331/88	-	-	MIC	-	500 µM
CCc1nc2ccc(C)cc2n1CCCCNc1ccccc1	H37Rv-LP	turbidity / fluorescence	-	MIC90	-	0.34 µM
CC(=O)Nc1ccc(S2=Nc3ccccc3S2)cc1	H37Rv	BACTEC	-	MIC bound	-	>6.25 µg/mL
CCCCCCCOc1ccc(NC(=O)OCC[NH+]2CCCC2)cc1	My 331/88	-	-	MIC	-	32 µM
CC(=O)C[C@H]1C[C@H]2[C@H]([C@@H]3c4[nH]c5ccccc5c4CCN13)[C@H](O)C13CC/C=C\CCCCN1CC21CC/C=C\CCCNC13	H37Rv	-	-	MIC	-	1.9 µg/mL
CCC(C)c1c(N)o[nH]c1=O	H37Rv	BACTEC	-	MIC bound	-	>12.5 µg/mL
CC(C)(C)c1ccc(NC(=O)c2cc(Cl)ccc2O)cc1	My 331/88	-	-	MIC	-	16 µM
COC(=O)c1nc(Cl)nc(Cl)c1Cl	-	resazurin	-	MIC bound	-	>6.25 µg/mL
CNc1ncnc2c1cnn2Cc1cn(COCCO)nn1	H37Rv	BACTEC	-	EC50	-	>12.5 µg/mL
CO[C@H]1/C=C/O[C@@]2(C)Oc3c(C)c(O)c4c(O)c(c(/C=N/N5CCN(C)CC5)c(O)c4c3C2=O)NC(=O)/C(C)=C\C=C\[C@H](C)[C@H](O)[C@@H](C)[C@@H](O)[C@@H](C)[C@H](OC(C)=O)[C@@H]1C	8S	-	-	MIC	-	1 µg/mL
CCc1nc2ccccc2n1CCCCOc1ccc2sc(C)nc2c1	H37Rv-LP	turbidity / fluorescence	-	MIC90	-	1.7 µM
CCCc1ccc(NC(=O)c2ccc(Cl)cc2O)cc1	My 331/88	-	-	MIC	-	2 µM
CO[C@H]1/C=C/O[C@@]2(C)Oc3c(C)c(O)c4c(O)c(c5[nH]c(N(C(C)C)C(C)C)nc5c4c3C2=O)NC(=O)/C(C)=C\C=C\[C@H](C)[C@H](O)[C@@H](C)[C@@H](O)[C@@H](C)[C@H](OC(C)=O)[C@@H]1C	H37Rv	-	-	MIC	-	0.04 µg/mL
COc1ncnc2c1cnn2Cc1cn(COCCO)nn1	H37Rv	BACTEC	-	EC50	-	<6.25 µg/mL
Cc1c[nH]c(C(=O)NN)c1-c1cc2c(-c3ccccc3)nc3ccccc3n2c1	H37Rv	-	-	MIC	-	<12.5 µg/mL
CO[C@H]1/C=C/O[C@@]2(C)Oc3c(C)c(O)c4c(=O)c(c5oc6cc(N7CCN(CC(C)C)CC7)cc(=O)c6nc5c4c3=C2O)NC(=O)/C(C)=C\C=C\[C@H](C)[C@H](O)[C@@H](C)[C@@H](O)[C@@H](C)[C@H](OC(C)=O)[C@@H]1C	2230 (rifampicin-resistant)	-	-	MBC	-	0.25 µg/mL
O=C1c2ccccc2-n2c1nc1ccc([N+](=O)[O-])cc1c2=O	H37Rv	-	-	MIC	-	>10 µg/mL
C[C@@H]1CC[C@@]2(NC1)O[C@H]1C[C@H]3[C@@H]4CC=C5C[C@@H](O)CC[C@]5(C)[C@H]4CC[C@]3(C)[C@H]1[C@@H]2C	H37Rv	BACTEC	-	MIC bound	-	>12.5 µg/mL
CO[C@H]1/C=C/O[C@@]2(C)Oc3c(C)c(O)c4c(O)c(c5[nH]c(N6CCCC6)nc5c4c3C2=O)NC(=O)/C(C)=C\C=C\[C@H](C)[C@H](O)[C@@H](C)[C@@H](O)[C@@H](C)[C@H](OC(C)=O)[C@@H]1C	H37Rv	-	-	MIC	-	0.01 µg/mL
O=C1c2cc(F)ccc2-n2c1nc1c(F)cccc1c2=O	H37Rv	-	-	MIC	-	<0.4 µg/mL
COc1cc(N=Nc2cc(C)c(N=Nc3cc(S(=O)(=O)O)ccc3S(=O)(=O)O)cc2OC)c(C)cc1N=Nc1ccc(NC(=O)c2ccc(N)cc2)cc1C	H37Rv	BACTEC	-	MIC	-	≥12.5 µg/mL
CCCCc1ccc(NC(=O)c2cc(Cl)ccc2O)cc1	My 331/88	-	-	MIC	-	4 µM
Cc1cccc2c1-c1c(C)cccc1NC(=O)CCCCCCCCC(=O)N2	H37Rv	resazurin	-	inhibition	6.25 µg/mL	20%
CCCOc1cccc(NC(=O)OCC[NH+]2CCCC2)c1	My 331/88	-	-	MIC	-	500 µM
CCOC(=O)c1cc(C(O)C(O)C(O)CO)oc1C	H37Rv	BACTEC	-	inhibition	12.5 µg/mL	-2%
Cc1c(OCC(F)(F)F)ccnc1CSc1nc2ccccc2[nH]1	-	resazurin	clinical isolate	MIC90	-	0.49 µM
CN.CNC(=O)c1n[nH]c(=S)[nH]c1=O	H37Rv	BACTEC	-	inhibition	12.5 µg/mL	0%
CC(=O)Oc1ccc2c(c1)C[C@]1(C)[C@@H](C)CCC3C(C)(C)CCC[C@]31O2	H37Rv	-	-	EC50	-	>6.25 µg/mL
CC1=C(C(=O)Nc2ccc(Cl)cc2)C(c2ccc(O)cc2)C(C(=O)Nc2ccc(Cl)cc2)=C(C)N1	H37Rv	-	-	inhibition	2.5 µg/mL	79%
Cc1cc(=O)[nH]c2cc3oc4ccccc4c3cc12	H37Rv	BACTEC	-	MIC bound	-	>12.5 µg/mL
CN1CCN(c2ccc3c(c2)-n2c(nc4ccccc4c2=O)C3=O)CC1	MDR 10038	-	-	MIC	-	5 µg/mL
CCCN(CC(=O)OCC)c1nc2c([nH]1)c1c(O)c3c(O)c(C)c4c(c32)C(=O)[C@@](C)(O/C=C/[C@H](OC)[C@@H](C)[C@@H](OC(C)=O)[C@H](C)[C@H](O)[C@H](C)[C@@H](O)[C@@H](C)/C=C/C=C(/C)C(=O)N1)O4	H37Rv	-	-	MIC	-	0.04 µg/mL
CCCCCCOc1ccc(NC(=O)OCC[NH+]2CCCC2)cc1	My 331/88	-	-	MIC	-	32 µM
OCCOCn1cc(Cn2ncc3c(NCc4ccccc4)ncnc32)nn1	H37Rv	BACTEC	-	EC50	-	>12.5 µg/mL
CCCCCCc1ccc(NC(=O)c2cc(Br)cc(Br)c2O)cc1	My 331/88	-	-	MIC	-	32 µM
CCc1nc2ccccc2n1CCCCSc1nc(-c2ccccc2)cs1	H37Rv-MA	turbidity / fluorescence	-	MIC90	-	5.3 µM
CC(=O)NC[C@H]1CN(c2ccc(N3CCOCC3)c(F)c2)C(=O)O1	5R	-	-	MIC	-	0.5 µg/mL
CCCCN(C)c1nc2c([nH]1)c1c(O)c3c(O)c(C)c4c(c32)C(=O)[C@@](C)(O/C=C/[C@H](OC)[C@@H](C)[C@@H](OC(C)=O)[C@H](C)[C@H](O)[C@H](C)[C@@H](O)[C@@H](C)/C=C/C=C(/C)C(=O)N1)O4	H37Rv	-	-	MIC	-	0.005 µg/mL
NC1=NNC2(C(=O)N1)c1ccccc1-c1ccccc12	H37Rv	BACTEC	-	inhibition	12.5 µg/mL	92%
CSc1ncnc2c1cnn2Cc1cn(COCCO)nn1	H37Rv	BACTEC	-	EC50	-	>12.5 µg/mL
Nc1ccc2nc3n(c(=O)c2c1)-c1ccc(F)cc1C3=O	H37Rv	-	-	MIC	-	5 µg/mL
CC(C)(C)Cc1cssc1=S	H37Rv	BACTEC	-	MIC bound	-	>12.5 µg/mL
CCCCCCCCc1ccc(NC(=O)c2cc(Cl)ccc2O)cc1	My 331/88	-	-	MIC	-	2 µM
COc1ccc(-c2csc(Nc3c(OC)cccc3OC)n2)cc1	H37Rv	agar	-	MIC	-	>12.5 µg/mL
CC(C)(C)c1ccc(NC(=O)c2ccc(Cl)cc2O)cc1	My 331/88	-	-	MIC	-	16 µM
CCCCCCOc1ccccc1NC(=O)OCC[NH+]1CCCC1	My 331/88	-	-	MIC	-	62.5 µM
COc1nc2ccc(Br)cc2cc1[C@@H](c1ccccc1)[C@@](O)(CCN(C)C)c1cccc2ccccc12	H37Rv-MA	turbidity / fluorescence	-	MIC90	-	0.7 µM
CO[C@H]1/C=C/O[C@@]2(C)Oc3c(C)c(O)c4c(O)c(c(/C=N/N5CCN(C/C=C/c6ccccc6)CC5)c(O)c4c3C2=O)NC(=O)/C(C)=C\C=C\[C@H](C)[C@H](O)[C@@H](C)[C@@H](O)[C@@H](C)[C@H](OC(C)=O)[C@@H]1C	2624 (rifampin-sensitive)	-	-	MBC	-	0.1 µg/mL
CCCCCc1ccc(NC(=O)c2cc(Br)ccc2O)cc1	My 331/88	-	-	MIC	-	8 µM
CCOC(=O)c1[nH]cc(C)c1-c1ccc2c(-c3ccccc3)nc3ccccc3n12	H37Rv	-	-	inhibition	12.5 µg/mL	98%
O=C1c2cc(I)ccc2-n2c1nc1ccccc1c2=O	MDR 10038	-	-	MIC	-	≤0.2 µg/mL
COc1ccccc1NC(=O)C1=C(C)NC(C)=C(C(=O)Nc2ccccc2OC)C1c1ccccc1Cl	H37Rv	-	-	EC50	-	>2.5 µg/mL
C[n+]1ccccc1-c1c(C(=O)N2CCCC2C(=O)NC2CCC(C(N)=O)N2C=O)ccc[n+]1Cc1cccc(C[n+]2cccc(C(=O)N3CCCC3C(N)=O)c2)c1	H37Rv	BACTEC	-	MIC bound	-	>12.5 µg/mL
CCCCCOc1ccc(NC(=O)OCC[NH+]2CCCC2)cc1	My 331/88	-	-	MIC	-	62.5 µM
COc1cccc(OC)c1Nc1nc(-c2cccc([N+](=O)[O-])c2)cs1	H37Rv	agar	-	MIC	-	>12.5 µg/mL
O=C(CNC(=O)n1ccnc1)N/N=C/c1ccccc1O	H37Rv	BACTEC	-	inhibition	12.5 µg/mL	-8%
CCCCCCc1ccc(NC(=O)c2cc(Br)ccc2O)cc1	My 331/88	-	-	MIC	-	8 µM
CCCN(Cc1ccccc1)c1nc2c([nH]1)c1c(O)c3c(O)c(C)c4c(c32)C(=O)[C@@](C)(O/C=C/[C@H](OC)[C@@H](C)[C@@H](OC(C)=O)[C@H](C)[C@H](O)[C@H](C)[C@@H](O)[C@@H](C)/C=C/C=C(/C)C(=O)N1)O4	H37Rv	-	-	MIC	-	0.02 µg/mL
CO[C@H]1/C=C/O[C@@]2(C)Oc3c(C)c(O)c4c(O)c(c5c(c4c3C2=O)NC2(CCN(CC(C)C)CC2)N=5)=NC(=O)/C(C)=C\C=C\[C@H](C)[C@H](O)[C@@H](C)[C@@H](O)[C@@H](C)[C@H](OC(C)=O)[C@@H]1C	3147 (rifampin-sensitive)	-	-	MBC	-	0.025 µg/mL
Cc1c2c(c(C)c3ccncc13)S(=O)(=O)c1ccccc1-2	H37Rv	resazurin	-	inhibition	6.25 µg/mL	35%
COc1cc(C2C(C(=O)Nc3ccc(Cl)cc3)=C(C)NC(C)=C2C(=O)Nc2ccc(Cl)cc2)cc(OC)c1OC	H37Rv	-	-	EC50	-	<2.5 µg/mL
CCCCCCCCCCOc1cccc(NC(=O)OCC[NH+]2CCCC2)c1	My 331/88	-	-	MIC	-	32 µM
NNC(=O)c1nnc(NN)[nH]c1=O	H37Rv	BACTEC	-	inhibition	12.5 µg/mL	-1%
CC1COc2c(N3CCN(C)CC3)c(F)cc3c(=O)c(C(=O)O)cn1c23	11 strains (drug-resistant)	-	-	MIC90	-	0.92 µg/mL
CC1CC2C3CCC4=CC(=O)C=CC4(C)C3(F)C(O)CC2(C)C1(O)C(=O)COP(=O)(O)O	H37Rv	BACTEC	-	MIC bound	-	>6.25 µg/mL
Cc1cc(O)c2c(c1)C(=O)c1c(oc3c1c(=O)oc1cccc(C)c13)C2=O	MTCS2	-	-	MIC	-	4.88 µg/mL
Cc1c[nH]c(C(=O)O)c1-c1cc2c(-c3ccccc3)nc3ccccc3n2c1	H37Rv	-	-	EC50	-	>12.5 µg/mL
Cc1cc(C)c2[nH]c(=O)c(C)c(C)c2c1Br	H37Rv	BACTEC	-	inhibition	6.25 µg/mL	74%
COc1cccc2c(=O)n3c(nc12)C(=O)c1cc(F)ccc1-3	H37Rv	-	-	MIC	-	<0.3 µg/mL
COCN1CCC2N(COC)CCC3N(COC)CCC1N23	H37Rv	BACTEC	-	MIC	-	32 µg/mL
CCCCCCCCOc1ccccc1NC(=O)OCC[NH+]1CCCC1	My 331/88	-	-	MIC	-	16 µM
CO[C@H]1/C=C/O[C@@]2(C)Oc3c(C)c(O)c4c(=O)c(c5oc6cc(N7CCN(CC(C)C)CC7)cc(=O)c6nc5c4c3=C2O)NC(=O)/C(C)=C\C=C\[C@H](C)[C@H](O)[C@@H](C)[C@@H](O)[C@@H](C)[C@H](OC(C)=O)[C@@H]1C	Atencio	-	-	MIC	-	0.004 µg/mL
N=C1C=C(N)C(=O)c2[nH]c(=O)ccc21	H37Rv	BACTEC	-	MIC	-	12.5 µg/mL
O=c1[nH]cnc2c1cnn2Cc1cnnn1COCCO	H37Rv	BACTEC	-	EC50	-	>12.5 µg/mL
O=c1c2ccccc2c2nccc3c4ccccc4n1c32	H37Rv	BACTEC	-	MIC bound	-	>12.5 µg/mL
Cc1cccc2nc3n(c(=O)c12)-c1ccc(F)cc1C3=O	MDR 10038	-	-	MIC	-	1 µg/mL

A second listing of 7 rows from above:

compound	strain	read by	conditions	endpoint	dose	value
CC(C)(C)Cc1cssc1=S	H37Rv	BACTEC	-	MIC bound	-	>12.5 µg/mL
CCCCCCCOc1ccc(NC(=O)OCC[NH+]2CCCC2)cc1	My 331/88	-	-	MIC	-	32 µM
CC(=O)C[C@H]1C[C@H]2[C@H]([C@@H]3c4[nH]c5ccccc5c4CCN13)[C@H](O)C13CC/C=C\CCCCN1CC21CC/C=C\CCCNC13	H37Rv	-	-	MIC	-	1.9 µg/mL
CCCCCCCCOc1ccccc1NC(=O)OCC[NH+]1CCCC1	My 331/88	-	-	MIC	-	16 µM
COc1cccc(OC)c1Nc1nc(-c2cccc([N+](=O)[O-])c2)cs1	H37Rv	agar	-	MIC	-	>12.5 µg/mL
C[C@@H]1CC[C@@]2(NC1)O[C@H]1C[C@H]3[C@@H]4CC=C5C[C@@H](O)CC[C@]5(C)[C@H]4CC[C@]3(C)[C@H]1[C@@H]2C	H37Rv	BACTEC	-	MIC bound	-	>12.5 µg/mL
Cc1cccc2c1-c1c(C)cccc1NC(=O)CCCCCCCCC(=O)N2	H37Rv	resazurin	-	inhibition	6.25 µg/mL	20%

An empty or dashed field is not shown. MIC bound comes from a single tested concentration. MIC50, MIC90 and the like: level of inhibition, or share of isolates inhibited. ECn is the concentration giving n% inhibition of infection, replication or growth. Rows are shuffled and stem from different studies.